# Experimental data: patent US6808877B2 (priority 2000, dated 2004)
# Test: general procedure: Fmoc solid-phase peptide synthesis
# Conditions: whole synthesis, scale of the general procedure 0.25 mmol
substance,measurement,value
WKYMVM (Trp-Lys-Tyr-Met-Val-D-Met,final purity (method not given),greater than 90%
